A mixed list of measured activities; the numbers were collected in NIAID ChemDB.

All rows: toxicity to cultured cells; cells: MT-4; read-out: CC50

Two numbers with a dash give a range or band. Neighbouring rows are from separate reports. CCn is the concentration with n% toxicity to the cells.

{"compound": "O=[N+]([O-])c1cccc(/C=N/c2nc3ccccc3s2)c1", "method": "MTT", "result": "60 µM"}
{"compound": "CC(C)=CCC/C(C)=C/Cc1c(O)cc2c(c1O)C(=O)C[C@@H](c1c(O)cc(O)cc1O)O2", "result": "113 µg/mL"}
{"compound": "Cc1cn([C@H]2C[C@H](N=[N+]=[N-])[C@@H](CO)O2)c(=O)[nH]c1=O", "method": "MTT", "result": "113 µM"}
{"compound": "O=C(CSc1nncnc1-c1ccccc1Cl)Nc1ccccc1F", "method": "MTT", "result": "98 µM"}
{"compound": "CC(C)[C@H](NC(=O)CNC(=O)OCc1ccccc1)C(=O)N[C@@H](Cc1ccccc1)C(=O)C(F)(F)CCc1ccccc1", "result": ">100 µM"}
{"compound": "COc1ccc2c(O)c(C(c3cccc(NS(=O)(=O)c4ccc(F)cc4)c3)C3CC3)c(=O)oc2c1", "result": ">30 µM"}
{"compound": "CC(C)=CCc1cc([C@@H]2CC(=O)c3c(O)cc(O)c(CC=C(C)C)c3O2)ccc1O", "result": "69 µg/mL"}
{"compound": "O=[N+]([O-])c1ccoc1C=Nc1nsc2ccccc12", "method": "MTT", "result": "4 µM"}
{"compound": "CC(C)=CCc1c(O)cc(O)c2c1O[C@H](c1cc3c(cc1O)O[C@@H](c1ccc(O)cc1)[C@@H]3c1cc(O)cc(O)c1)CC2=O", "result": "66 µg/mL"}
{"compound": "Cc1cn([C@H]2C[C@H](N=[N+]=[N-])[C@@H](CO)O2)c(=O)[nH]c1=O", "result": ">2 µg/mL"}
{"compound": "O=S1(=O)N=C(Nc2ccc(F)cc2)C=C(Cc2cccc3ccccc23)N1", "method": "MTT", "result": "158 µM"}
{"compound": "Nc1ncnc2c1ncn2CC(CF)OCP(=O)(O)O", "result": ">1000 µM"}
{"compound": "Cc1ccccc1CN1CCC(N=C2C=C(Cc3ccc(Cl)cc3Cl)NS(=O)(=O)N2)CC1", "method": "MTT", "result": "107 µM"}
{"compound": "O=C1CSC(c2c(Cl)cccc2Cl)N1c1ccccn1", "method": "MTT", "result": ">38.5 µM"}
{"compound": "Nc1nc(N)c2ncn(CCOCP(=O)(O)O)c2n1", "result": "21–185 µM"}
{"compound": "CC1=C[C@]23C(=O)[C@@H](C=C(COC(=O)C(C)(C)C)[C@@H](O)[C@]2(O)[C@H]1O)[C@H]1[C@@H](C[C@H]3C)C1(C)C", "method": "MTT", "result": "8.9 µg/mL"}
{"compound": "Cc1ccnc2c1NC(=O)c1cccnc1N2C1CC1", "method": "MTT", "result": ">15.02 µM"}
{"compound": "CCCCCCCCCCCC(=O)O[C@@]12C[C@@H](C)[C@]34C=C(C)[C@@H]5OC(=O)O[C@@]53[C@H](O)C(COC(=O)OC)=C[C@H](C4=O)[C@@H]1C2(C)C", "method": "MTT", "result": "8.9 µg/mL"}
{"compound": "NC1=Nc2c(ncn2CCC/C=C/P(=O)(O)O)C(=O)C1", "method": "MTT", "result": "138 µM"}
{"compound": "O=S1(=O)NC(Cc2cccc3ccccc23)=CC(=NC2CCN(Cc3ccc(F)cc3)CC2)N1", "method": "MTT", "result": "120 µM"}
{"compound": "COC(=O)c1ccc(NC(=O)CSc2nncnc2-c2cccc3ccccc23)c(Br)c1", "method": "MTT", "result": "173 µM"}
{"compound": "CCC1(c2ccccc2)Oc2ccccc2-n2cccc2C1=O", "result": "2.9 µM"}
{"compound": "CN=C1N(C)C(=O)OC12[C@@H](CO[Si](C)(C)C(C)(C)C)O[C@@H](n1cc(C)c(=O)n(C)c1=O)[C@@H]2O[Si](C)(C)C(C)(C)C", "result": "21.9 µM"}
{"compound": "CC(C)[C@H](NC(=O)OCc1ccccc1)C(=O)N[C@@H](Cc1ccccc1)C(=O)C(F)(F)CCc1ccccn1", "result": ">100 µM"}
{"compound": "Cc1ccc2snc(N=Cc3cccc(Cl)c3)c2c1", "method": "MTT", "result": "7 µM"}
{"compound": "O=[N+]([O-])c1ccc(CN2CCC(N=C3C=C(Cc4ccc(Cl)cc4Cl)NS(=O)(=O)N3)CC2)cc1", "method": "MTT", "result": "97.06 µM"}
{"compound": "O=[N+]([O-])c1ccc(/C=N/c2nc3ccc(F)cc3s2)cc1", "method": "MTT", "result": "≥100 µM"}
{"compound": "O=c1[nH]c(=O)n([C@@H]2O[C@H](CO)[C@@H](O)[C@H]2O)c2c1Nc1ccccc1S2", "method": "MTT", "result": "53 µg/mL"}
{"compound": "Cc1ccc(NC(=O)CSc2nncnc2-c2ccccc2Cl)c([N+](=O)[O-])c1", "method": "MTT", "result": "158 µM"}
{"compound": "Nc1ncnc2c1ncn2CCOCP(=O)(OCCSSCCO)OCCSSCCO", "result": "20 µM"}
{"compound": "c1cc(CN2CCCNCCNCCCNCC2)ccc1CN1CCCNCCNCCCNCC1", "result": ">250 µg/mL"}
{"compound": "COc1ccc(-c2cc(C)c(Nc3ccnc(Nc4ccc(C#N)cc4)n3)c(C)c2)cc1", "method": "MTT", "result": "2.08 µM"}
{"compound": "Fc1cccc(F)c1[C@@H]1SCc2nc3ccccc3n21", "result": "86.7 µM"}
{"compound": "CCC(CC1CCOCC1)c1cc(O)c(C(c2cccc(NS(=O)(=O)c3cn(C)cn3)c2)C2CC2)c(=O)o1", "result": ">30 µM"}
{"compound": "COc1ccc(CN2CCC(N=C3C=C(Cc4ccc(Cl)cc4Cl)NS(=O)(=O)N3)CC2)cc1", "method": "MTT", "result": "109 µM"}
{"compound": "CC(=O)c1ccc(C)cc1NC(C(N)=O)c1c(Cl)cccc1Cl", "result": ">125 µg/mL"}
{"compound": "Cc1ccc(NC(=O)CSc2nncnc2-c2cccc3ccccc23)c([N+](=O)[O-])c1", "method": "MTT", "result": "147 µM"}
{"compound": "COc1ccc(CSc2nc(CC34CC5CC(CC(C5)C3)C4)c(C)c(=O)[nH]2)cc1", "method": "MTT / absorbance", "result": "1.92 µM"}
{"compound": "Nc1ncnc2c1ncn2[C@H]1CC[C@@H](CO)O1", "result": ">100 µM"}
{"compound": "Cc1ccnc(N2C(=O)CSC2c2c(F)cccc2Cl)c1", "method": "MTT", "result": ">33.9 µM"}
{"compound": "CN(C)c1ccc(NC2=NS(=O)(=O)NC(Cc3ccccc3)=C2)cc1", "method": "MTT", "result": "256 µM"}
{"compound": "Nc1nc(N)c2ncn(CC(CF)OCP(=O)(O)O)c2n1", "result": ">1000 µM"}
{"compound": "Cc1cn([C@H]2C[C@H](N=[N+]=[N-])[C@@H](CO)O2)c(=O)[nH]c1=O", "result": "3.7 µM"}
{"compound": "Nc1ncnc2c1ncn2C[C@@H](CO)OCP(=O)(O)O", "result": "59–168 µM"}
{"compound": "O=c1[nH]c(=O)n([C@H]2C[C@H](F)[C@@H](CO)O2)cc1F", "result": "50 µM"}
{"compound": "COc1ccc(NC2=NS(=O)(=O)NC(Cc3ccccc3)=C2)cc1", "method": "MTT", "result": "318 µM"}
{"compound": "CC(C)=CCC/C(C)=C/Cc1c(O)cc(O)c2c1O[C@H](c1ccc(O)cc1)CC2=O", "result": "21 µg/mL"}
{"compound": "Cc1ccc(NC2=NS(=O)(=O)NC(Cc3ccccc3)=C2)cc1Cl", "method": "MTT", "result": "175 µM"}
{"compound": "COc1ccc(C=Nc2nsc3ccccc23)cc1", "method": "MTT", "result": "7 µM"}
{"compound": "COc1cc(NC2=NS(=O)(=O)NC(Cc3ccc4ccccc4c3)=C2)cc(OC)c1OC", "method": "MTT", "result": "204 µM"}
{"compound": "O=C1CSC(c2c(Cl)cccc2Cl)N1c1ccncc1", "method": "MTT", "result": ">10 µM"}
{"compound": "O=S1(=O)NC(Cc2ccc(Cl)cc2Cl)=CC(=NC2CCN(Cc3ccc(Br)cc3)CC2)N1", "method": "MTT", "result": "97.9 µM"}
{"compound": "COc1ccc2c(O)c(C(c3cccc(NS(=O)(=O)c4cccc5cccnc45)c3)C3CC3)c(=O)oc2c1", "result": ">30 µM"}
{"compound": "CC(=O)SCCOP(=O)(OCCSC(C)=O)OC[C@@H]1CC[C@H](n2cnc3c(=O)[nH]cnc32)O1", "result": ">100 µM"}
{"compound": "Cc1cn([C@@H]2O[C@H](CO[Si](C)(C)C(C)(C)C)C3(OS(=O)(=O)C=C3N)[C@H]2O[Si](C)(C)C(C)(C)C)c(=O)n(C)c1=O", "result": "227 µM"}
{"compound": "Cc1ccc2snc(N=Cc3ccccc3Cl)c2c1", "method": "MTT", "result": "8 µM"}
{"compound": "CC(C)=CCC(Cc1c(O)cc(O)c2c1O[C@H](c1ccc(O)cc1O)CC2=O)C(=O)O", "result": "23 µg/mL"}
{"compound": "C#Cc1ccc(Nc2nccc(Oc3c(C)cc(-c4cn(CC(=O)Nc5ccc(S(C)(=O)=O)cc5)nn4)cc3C)n2)cc1", "method": "MTT", "result": "6.36 µM"}
{"compound": "Cc1c(CC23CC4CC(CC(C4)C2)C3)nc(SCC(=O)c2ccccc2)[nH]c1=O", "method": "MTT / absorbance", "result": ">306 µM"}
{"compound": "Nc1nc(N)c2ncn(CC(CO)OCP(=O)(O)O)c2n1", "result": "59–168 µM"}
{"compound": "C#Cc1ccc(Nc2nccc(Oc3c(C)cc(-c4cn(CC(=O)Nc5ccc(F)cc5)nn4)cc3C)n2)cc1", "method": "MTT", "result": "1.41 µM"}
{"compound": "Cn1cnc(S(=O)(=O)Nc2cccc(C(c3c(O)cc(CCc4ccccc4)oc3=O)C3CC3)c2)c1", "result": ">30 µM"}
{"compound": "CCCCCCCCCCCC(=O)O[C@H]1C(C)=C[C@]23C(=O)[C@@H](C=C(CO)[C@@H](O)[C@]12O)[C@@H]1C(C)(C)[C@]1(OC(=O)CCCCCCCCCCC)C[C@H]3C", "method": "MTT", "result": "65.8 µg/mL"}
{"compound": "CCc1c(CC23CC4CC(CC(C4)C2)C3)nc(SCC(=O)Nc2ccccc2)[nH]c1=O", "method": "MTT / absorbance", "result": "15.88 µM"}
{"compound": "Cc1ccc2c(c1)Sc1c(c(=O)[nH]c(=O)n1COCc1ccccc1)N2", "method": "MTT", "result": "1.9 µg/mL"}
{"compound": "Cc1cn([C@H]2C[C@H](N=[N+]=[N-])[C@@H](CO)O2)c(=O)[nH]c1=O", "method": "MTT / absorbance", "result": ">7.06 µM"}
{"compound": "O=C1CSC(c2c(F)cccc2F)N1c1ccccn1", "method": "MTT", "result": "427 µM"}
{"compound": "N#Cc1ccc(CN2CCC(N=C3C=C(Cc4cccc5ccccc45)NS(=O)(=O)N3)CC2)cc1", "method": "MTT", "result": "100 µM"}
{"compound": "O=S1(=O)N=C(Nc2ccc(F)c(F)c2)C=C(Cc2ccccc2)N1", "method": "MTT", "result": "250 µM"}
{"compound": "Cc1c(CC23CC4CC(CC(C4)C2)C3)nc(SCC(=O)Nc2ccc(C#N)cc2)[nH]c1=O", "method": "MTT / absorbance", "result": "6.69 µM"}
{"compound": "O=S1(=O)N=C(Nc2cccc(Cl)c2)C=C(Cc2ccccc2)N1", "method": "MTT", "result": "189 µM"}
{"compound": "COC(=O)N[C@H](C(=O)N[C@H](Cc1ccc(-c2ccccn2)cc1)C[C@H](O)[C@H](Cc1ccccc1)NC(=O)[C@@H](N1CCN(Cc2cccc(C(C)(C)O)n2)C1=O)C(C)(C)C)C(C)(C)C", "method": "MTT", "result": "0.022 µM"}
{"compound": "CC(C)Nc1cccnc1N1CCN(C(=O)c2cc3cc(NS(C)(=O)=O)ccc3[nH]2)CC1", "method": "MTT / absorbance", "result": "30.4 µM"}
{"compound": "O=c1[nH]c(=O)n(COCc2ccccc2)c2c1Nc1ccc(Cl)cc1S2", "method": "MTT", "result": "3 µg/mL"}
{"compound": "C#Cc1ccc(Nc2nccc(Oc3c(C)cc(-c4cn(-c5cccc(C(=O)OC)c5)nn4)cc3C)n2)cc1", "method": "MTT", "result": ">242 µM"}
{"compound": "Cc1cc(O)c(C(c2cccc(NS(=O)(=O)c3cn(C)cn3)c2)C2CC2)c(=O)o1", "result": ">30 µM"}
{"compound": "C#Cc1ccc(Nc2nccc(Oc3c(C)cc(-c4cn(Cc5cccc([N+](=O)[O-])c5)nn4)cc3C)n2)cc1", "method": "MTT", "result": "101 µM"}
{"compound": "Fc1cccc(F)c1[C@H]1SCc2nc3ccccc3n21", "result": "38.1 µM"}

A second listing of 7 rows from above:

{"compound": "O=[N+]([O-])c1ccc(/C=N/c2nc3ccc(F)cc3s2)cc1", "method": "MTT", "result": "≥100 µM"}
{"compound": "Nc1ncnc2c1ncn2C[C@@H](CO)OCP(=O)(O)O", "result": "59–168 µM"}
{"compound": "Cn1cnc(S(=O)(=O)Nc2cccc(C(c3c(O)cc(CCc4ccccc4)oc3=O)C3CC3)c2)c1", "result": ">30 µM"}
{"compound": "CCC1(c2ccccc2)Oc2ccccc2-n2cccc2C1=O", "result": "2.9 µM"}
{"compound": "C#Cc1ccc(Nc2nccc(Oc3c(C)cc(-c4cn(Cc5cccc([N+](=O)[O-])c5)nn4)cc3C)n2)cc1", "method": "MTT", "result": "101 µM"}
{"compound": "CC(=O)c1ccc(C)cc1NC(C(N)=O)c1c(Cl)cccc1Cl", "result": ">125 µg/mL"}
{"compound": "Cc1ccc(NC(=O)CSc2nncnc2-c2ccccc2Cl)c([N+](=O)[O-])c1", "method": "MTT", "result": "158 µM"}